In patent US5648337 (dated 1997):

Experiment: general procedure: Boc solid-phase peptide synthesis; BHA-photoresin [4-(2-chloropropionyl)phenoxy]acetamidomethyl-copoly(styrene-1% divinyl-benzene) resin; BOP/HOBt
Details: late stage modification step, analytical HPLC

| Substance | crude HPLC purity [%] | final HPLC purity [% pure] |
| --- | --- | --- |
| PhCH2 CH2 CO-N-Me-Val-Ile-Asn-Asp-NHCH[CH2 CH(CH3)2 ]-5-1H-tetrazole | 90 | – |
| PhCH2 CH2 CO-N-Me-Val-Ile-NHCH[CH2 -5-1H-tetrazole]CO-Asp-Leu-OH | – | 100 |
